This assay deals with neuraminidase of B/Perth/211/2001 Yam (D197E) (Influenza B virus, UniProt Q3S340, D197E). The assay is classed as biochemical. As to conditions: read-out: IC50 NA B/Perth/211/2001 Yam (D197E).

Take `CCC(CC)O[C@@H]1C=C(C(=O)O)C[C@H](N)[C@H]1NC(C)=O` [OST-car, Oseltamivir carboxylate]: the IC50 is 10 ± 2 nM.

For the origin of these results see PMC6204821, “Inhibitory effect of microalgae and cyanobacteria extracts on influenza virus replication and neuraminidase activity” (PeerJ, 2018).
